Experiments:
[1] = molecular target: serum IgA of slow progressor subject 2097, bleed 2; assay: cell-based or functional assay
[2] = molecular target: serum IgA of slow progressor subject 2098, bleed 2; assay: cell-based or functional assay

KQIINMWQEVG (modifications not checked) [EP-421-433, electrophilic analog of gp120 residues 421-433]
inhibition of gp120 cleavage by IgA, EP-421-433 at 10 µM [1]: 89 % inhibition | inhibition of gp120 cleavage by IgA, EP-421-433 at 10 µM [2]: 94 % inhibition
